Data reported in US20230374114A1, “Coronavirus antibodies and methods of use thereof” (Dana-Farber, published 2023).

Target: D614G Spike (SARS-CoV2, UniProt P0DTC2 16-1213)
Experiment: biosensor kinetics; scFv-Fc loaded at 1 ug/ml, spike as analyte at 48.3 nM

B1: Ab 38 (scFv, V domains shown)
VH: QVTLKESGPTLVKPTQTLTLTCTFSGFSLTTSGVSVGWIRQPPGKALEWLALIHWDDDKRYSPSLRSRLTITRDTSKNQVVLTVTDMDPADTGTYYCASFIMTVYAEYFEDWGQGTLVTVSS
VL: EIVLTQSPATLSVSPGERATLSCRASQSVSSNLAWYQQKPGQAPRLLMYDVSTRATGIPARFSGSGSGTEFSLTISSLQSEDFAVYYCQQRGAWPLTFGGGTKVEIK
notes: also called Ab 38 scFv-Fc
  Response: 0.328
